Measurements reported in PubChem BioAssay AID1259414 (Drosophila RNAi Screening Center, 2018).

Assay: 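Host factors increasing or decreasing Wolbachia levels in cultured fly cells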 (primary screen)
System: Drosophila JW18 cells infected with Wolbachia
Knock-down reagent: long dsRNA against Drosophila genes, 0.25 µg dsRNA per well of a 384-well plate
Duration: 5 days
Conditions: cells persistently infected with Wolbachia before knock-down; no added drug
Detection: 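Imaged fluorescence in situ signal for Wolbachia 23S rRNA per DAPI-counted host cell, given as a robust z-score within each plate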
Reading the numbers: Wolbachia per cell robust z: higher = more Wolbachia per host cell than the plate typical
Hit rule: 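Active if absolute robust z reaches 1.5 in two or more of three replicates, leaving out multi- or no-target dsRNAs, genes unexpressed in JW18 and A1 wells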
The deposit covers about 24,000 reagents; below is an unselected part of those that have a named target and a result. In the full data, about 1,210 (5%) are marked active. 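Inactive calls also include excluded dsRNAs with several or no targets, genes unexpressed in JW18, and well A1, regardless of score.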 Entries without a mark were called inactive. The numbers tell different reagents against one gene apart. Names joined by + are all predicted targets of the reagent.

target gene,reagent no.,"Wolbachia per cell robust z, rep 1","Wolbachia per cell robust z, rep 2","Wolbachia per cell robust z, rep 3"
CG14881,1,0.226,-0.374,-1.64
CG14881,2,-0.82,-0.522,-0.301
ham (hamlet),1,-8.58,0.872,0.328
ham (hamlet),2,0.926,-0.179,1.52
ham (hamlet),3,-0.5,1.03,-1.14
ham (hamlet),4,0.243,-0.483,-1.14
CG13126,1,0.984,-0.638,-3.94
CG13126,2,-0.393,0.468,0.53
Tpc2 + CG9083,1,0,1.95,2.25
CG9676,1,-0.946,0.342,-2.24
"ATPsynbeta (ATP synthase, beta subunit)",1,-0.165,1.12,0.767
"ATPsynbeta (ATP synthase, beta subunit)",2,0.0595,0.967,1.13
Ndg (Nidogen),1,-0.579,0.337,-0.595
Ndg (Nidogen),2,-6.61,-0.374,-0.694
CG1894,1,0.00761,0.5,-0.414
CG13907,1,-0.0573,-0.448,-0.061
CG13907,2,0.197,0.504,-0.917
CG15890,1,-2.11,-1.87,0.189
Chi (Chip),1,-0.948,1.08,-0.948
Chi (Chip),2,-1.63,0.496,-0.447
CG42592,1,0.122,-0.319,-0.711
bgcn (benign gonial cell neoplasm),1,0.882,1.22,0.674
bgcn (benign gonial cell neoplasm),2,-0.275,0.111,0.645
mthl15 (methuselah-like 15),1,-0.925,-1.4,-0.632
DAAM (Dishevelled Associated Activator of Morphogenesis),1,-2.32,0.0438,0.25
CG8170,1,2.11,1.21,-0.189
CG6650,1,-0.0297,-0.127,0.244
Pif1A + Pif1B,1,-1.78,0.19,0.489
5PtaseI (Inositol polyphosphate-5-phosphatase type I),1,-2.65,-0.98,-0.236
5PtaseI (Inositol polyphosphate-5-phosphatase type I),2,-2.48,0.868,0.0106
5PtaseI (Inositol polyphosphate-5-phosphatase type I),3,-1.08,-1.17,-3.26
aspr (asperous),1,0.596,-0.0885,0.696
aspr (asperous),2,0.328,0.0541,0.767
CG15317,1,-0.814,0.704,0.711
CG15317,2,0.745,0.168,-0.398
MFS14 (Major Facilitator Superfamily Transporter 14),1,0.714,0.713,1.29
MFS14 (Major Facilitator Superfamily Transporter 14),2,0.558,1.12,0.466
CG13474,1,0.713,2.93,1.76
Ca-beta (Ca2+-channel-protein-beta-subunit),1,-3.78,-1.22,-0.24
Ca-beta (Ca2+-channel-protein-beta-subunit),2,-0.21,-0.812,0.299
Ca-beta (Ca2+-channel-protein-beta-subunit),3,-1,-0.848,-0.521
Ca-beta (Ca2+-channel-protein-beta-subunit),4,0.501,0.457,-0.0556
Ca-beta (Ca2+-channel-protein-beta-subunit),5,1.02,0.941,0.978
Ca-beta (Ca2+-channel-protein-beta-subunit),6,1.16,-5.02,0.732
CG12123,1,-1.18,-2.39,0.0038
CG6665,1,0.499,-0.739,0.49

Reformatted: results already given.
target gene	reagent no.	Wolbachia per cell robust z, rep 1	Wolbachia per cell robust z, rep 2	Wolbachia per cell robust z, rep 3
CG6650	1	-0.0297	-0.127	0.244
Pif1A + Pif1B	1	-1.78	0.19	0.489
5PtaseI (Inositol polyphosphate-5-phosphatase type I)	1	-2.65	-0.98	-0.236
5PtaseI (Inositol polyphosphate-5-phosphatase type I)	2	-2.48	0.868	0.0106
5PtaseI (Inositol polyphosphate-5-phosphatase type I)	3	-1.08	-1.17	-3.26
aspr (asperous)	1	0.596	-0.0885	0.696

More results follow:
target gene,reagent no.,"Wolbachia per cell robust z, rep 1","Wolbachia per cell robust z, rep 2","Wolbachia per cell robust z, rep 3"
CG13360,1,-0.107,0.316,0.689
CG13360,2,-0.966,1.51,1.05
shn (schnurri),1,-0.441,0.837,-1
shn (schnurri),2,-0.958,0.794,0.3
shn (schnurri),3,-0.238,-2.28,-0.362
Tim23 (Translocase of inner mitochondrial membrane 23),1,-1.89,-0.18,-0.212
Rpn10 (Regulatory particle non-ATPase 10),1,0.343,0.768,1.2
mIF3 (mitochondrial translation initiation factor 3),1,-1.29,0.535,-0.412
CG33771,1,-0.0949,-0.108,0.608
CG17801,1,0.751,-0.118,-0.17
CG18259,1,-1.34,-2.19,0.838
flz (filzig),1,-1.33,-1.31,-0.124
Obp99a (Odorant-binding protein 99a),1,-1.34,0.0307,0.281
Plekhm1 (Pleckstrin homology and RUN domain containing M1),1,0.0719,-0.998,-0.134
CG5708,1,-1.39,0.938,0.779
CG2812,1,0.164,0.155,-2.22
CG2812,2,0.629,-0.351,-0.538
CG9853,1,0.803,0.399,0.189
CG9853,2,-2.26,-0.499,0.0584
CG9853,3,1.48,1.14,-0.086
CG1271,1,0.866,-0.465,0.954
XRCC1,1,0.00315,-0.306,1.68
XRCC1,2,0.992,0.946,0.155
CG33476,1,-1.26,-1.29,-0.412
CG13725,1,-2.32,-0.471,-0.409
BaraB (Baramicin B),1,-0.994,-2.07,-1
CG31636,1,0.717,0.112,-4.54
CG31636,2,1.67,0.868,1.24
Kap3 (Kinesin associated protein 3),1,0.554,-0.156,-1.09
Kap3 (Kinesin associated protein 3),2,-1.48,0.566,-0.911
Klp98A (Kinesin-like protein at 98A),1,-0.605,-0.2,-2.74
Klp98A (Kinesin-like protein at 98A),2,0.647,0.262,0.051
dnk (deoxyribonucleoside kinase),1,-5.54,-0.633,-0.249
dnk (deoxyribonucleoside kinase),2,-1.21,0.495,0.454
dnk (deoxyribonucleoside kinase),3,0.433,1.17,-0.867
RpL11 (Ribosomal protein L11),1,4.53 (active),1.54,5.73
RpL11 (Ribosomal protein L11),2,2.1 (active),1.63,1.34
CG10365,1,0.282,-0.0455,-0.242
gry (gryzun),1,-1.36,-0.292,-0.00989
gry (gryzun),2,1.39,0.444,-0.484
betaTry (betaTrypsin),1,-4.1,0.254,-0.86
betaTry (betaTrypsin),2,-0.234,0.543,-0.105
betaTry (betaTrypsin),3,0.396,-1.17,0.846
